# In the supplement of paper PMC9931576:
# Human monoclonal antibodies against the spike receptor-binding domain (heavy:light variable regions). IC50 against pseudoviruses bearing the spike of naturally observed variants; lower = stronger; >10 µg/ml means not reached at the top dose. No active / inactive call. The stated detection limit is 0.0005 µg/ml; values near or below 0.001 µg/ml lie at the floor of the assay.
# B1: BD55-5700 (protein)
# chain 1: EVQLVEAGGGLVQPGRSLRLSCTASGFSFGDHAMNWVRQAPGKGLEWVGFIRTKPYGGTTDYAASVRGRFTISRDDSKSIAYLQMNSLKTEDTAVYYCAREEDRGYSGYDFLDYFYGMDVWGQGTTVTVSS
# chain 2: QSVLTQPPSASGTPGQRVTISCSGSSSNIGREYVYWYQQLPGTAPKLLIYRNNQRPSGVPDRFSGSKSGTSASLAISGLRSEDEADYYCAAWDDSLSAFVFGTGTRVTVL
# B2: BD55-5721 (protein)
# chain 1: QVQLVQSGAEVKKPGSSVKVSCKASGGTFSSYIINWVRQAPGQGLEWMGRIIPSLGVVNDAQKFQGRVTFIADKSTSTAYMELSGLRSEDTAVYYCARQQWLVDLYSYYGLDVWGQGTTVTVSS
# chain 2: DIVMTQTPLSLSVTPGQPAYISCKSSQSLLDTDGKTYLYWYLQKPGQSPQLLIYEVSRRFSGVPERFSGSGSGTDFTLKISRVEAEDVGVYYCMQATHLPYTFGQGTKLEIK
# B3: BD55-5733 (protein)
# chain 1: QVQLVQSGAEVKKPGSSVKVSCKASGETFRSHTLNWMRQAPGQGLEWMGRIIPFLGVATGAQKFQARVTITADKSTSTAYMELSSLRSEDTAVYYCARGVVAATPGAFDIWGQGTLVTVSS
# chain 2: EIVMTQSPATLSVSPGERATLSCRASQSVGSDLAWYQQKPGQAPRLLISGASTRATGIPARFTGSGSGTEFTLTISSLQSEDFAVYFCQQYNNWLTFGQGTKVEIK
# B4: BD55-5743 (protein)
# chain 1: QVQLVQSGSELQRPGASVKVSCKASGYTFSTYALKWVRQAPGQGLEWMGWINTNTGNPTYAQGFAGRFVFSLDASVTTAYLQINSLKPEDTAIYYCARVFCSYDTCYDVDYWGQGTLVTVSS
# chain 2: QSVLTQPPSASGTPGQRVTISCSGSSSNIGSNFVYWYQQLPGTAPKLLIYRNNHRPSGVPDRFSGSKSGTSASLAITGLRSEDEADYYCAAWDDGLTGRMFGGGTKLTVL
# B5: BD55-5745 (protein)
# chain 1: QVQLVQSGSELKKPGASVKISCKASGYTFTTYGIKWVRQAPGQGLEWMGWINTNTGNPTYAQAFTGRFVFSLDTSVSTAYLQIDSLDTEDTAFYYCARVFCTDYTCFDVDYWGQGTPLTVSS
# chain 2: QSVLTQPPSASGAPGQRVTISCSGSNSNIGSNYVYWYQHLPGTAPKLLIYRDNNRPSGVPDRFSGSKSGTSASLAISGLRSEDEADYYCAVWDDRLSGRVFGGGTKLAVL
# B6: BD55-5753 (protein)
# chain 1: QAQLVQSGAEVKKPGASVKVSCKASGYTSTSFDVNWVRQATGQGLEWMGWVNPKTGDTGYAQKFEGRVTMTRNTSISTVYMELNSLRSEDTAVYFCATGLYYWPNVFDPWGQGTLVIVSS
# chain 2: DIQMTQSPSSLSASVGDRVTITCRASQSISNELSWYQQRPGKAPKLLIYTASSLQSGVPSRFSGSGSGTDFTLTISSLQPEDFATYYCQQSYSTPGTFGLGTKLEIK
# B7: BD55-5761 (protein)
# chain 1: QITLKESGPSLVKPTQTLTLTCTFSGFSLSTTEVSVGWIRQPPGKALEWLALIYWDDGKRYSPSLESRLTITKDTSKNQVVLRMTHMDPVDTATYYCVHSHFDISTGYFGFDYWGQGTLVTVSS
# chain 2: DIVMTQTPLSSPVTIGQPASISCRSSQSLAHSDGNIYLSWFHQRPGQPPRLLIYKVSNRFSGVPDRFSGSGAGTDFTLKISRVEAEDVGVYYCMQATQFPHEMYTFGQGTKLEIK
# B8: BD55-1093 (protein)
# chain 1: QVQLVQSGVEVKKPGASVKISCKASGYTFTDYYMHWVRQAPGQGLEWMAVINPSDGSTLHAQKFQGRLTLSSDTSTSTVNMEMSSLKSEDTAVYYCARDLTRGHSGLDSFPDYWGHGTLVTVSS
# chain 2: DIQMTQSPSSLSASVGDRVTIACRASQSIGGFLNWYQHKPGKAPKLLIYSASNLQSGVPSRFSGSGSGTEFTLTISRLQPEDIATYYCLQSYNTPPWTFGQGTKVEVK
# B9: BD55-5771 (protein)
# chain 1: QVQLVQSGAEVKKPGASVKVSCKGSGYPFTGYFLHWVRQAPGQGPEWMGWINPLSGATNYAQKFQGRVTMTRDTSINTAYMELSRLRSDDTAVYYCASPSFCSSSDCYHYYYYYMDVWGKGTTVTVSS
# chain 2: DIVMTQTPLSLSVTPGQSASISCRSSQSLLHSDGKTYLYWYLQKPGQPPQLLIYEVSNRFSGVPDRFSGSGSGTDFTLKISRVEAEDVGVYYCMQSIELPITFGQGTRLEIK
# B10: BD55-5774 (protein)
# chain 1: EVQLVEAGGGLVKPGESLRISCAVSGFIFRSYSMNWVRQAPGKGLEWVSSISSVSDYISYGDSVKGRFAISRDNAQNSLFLQMNSLRAEDTAVYYCARRSNAGEVLDYWGQGTLVIVSS
# chain 2: DIVMTQSPDSLAVSLGERATIHCKSSQSVLYSSNNKNYLAWYQQKPGQPPKLLLYWASTRESGAPDRFSGSGSGTDFTLTISSLQAEDVAVYYCQQFYSSPITFGQGTRLDIK
# B11: BD55-5779 (protein)
# chain 1: QVQLVQSGAEVKKPGASVKVSCKASGYSFTDYAVHWVRLAPGQRLEWMGWINTANGDTKYSQNFQDRVTITRDTSATTAYMELSSLRSEDTAVYYCARAIIVHTAPVTFYFYYGMDVWGQGTTVTVSS
# chain 2: SYELTQPPSVSVSPGQTARITCSGDALPKQYAYWYQQKPGQAPILVIYKDNERPSGIPERFSGSSSGTTVTLTISGVQPEDEADYYCQSADSATTYMVFGGGTKLTVV
# B12: BD55-5785 (protein)
# chain 1: QVQLQESGPGLVKPSETLSLTCIVSGGPISSYYWTWIRQPPGKGLEWIGYVYYSGHTDYNPSVKSRVTISIDRSRNQFSLNLRSVSTADTAVYYCARGSGPYDMLTGTPGYKFDQWGQGTLVTVSS
# chain 2: SYEVTQPSSVSVSPGQTASITCSGDNLGKNSVCWYQQKPGQSPVLVIYEDKERPSGIPERFSGSNSGNTATLTISGTQAVDEADYFCQAWDTKTWVFGGGTKLTVL
# Target: SARS-CoV-2 Omicron BA.1 spike pseudovirus
# Assay: pseudovirus neutralization IC50; higher = weaker neutralization
# Procedure: (§1)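 Single-round VSV luciferase pseudovirus mixed with antibody dilutions for 1 h and put on Huh-7 cells for about a day; IC50 from the dose curve.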
row,Binder,pseudovirus neutralization IC50
1,B1,0.0669 µg/mL
2,B2,> 10 µg/mL
3,B3,> 10 µg/mL
4,B4,> 10 µg/mL
5,B5,> 10 µg/mL
6,B6,> 10 µg/mL
7,B7,> 10 µg/mL
8,B8,> 10 µg/mL
9,B9,> 10 µg/mL
10,B10,4.08 µg/mL
11,B11,> 10 µg/mL
12,B12,> 10 µg/mL

# Target: SARS-CoV-2 Omicron BA.2 spike pseudovirus
# Assay: as above
# Procedure: as §1
row,Binder,pseudovirus neutralization IC50
1,B1,> 10 µg/mL
2,B2,2.17 µg/mL
3,B3,> 10 µg/mL
4,B4,> 10 µg/mL
5,B5,> 10 µg/mL
6,B6,> 10 µg/mL
7,B7,> 10 µg/mL
8,B8,> 10 µg/mL
9,B9,> 10 µg/mL
10,B10,1.65 µg/mL
11,B11,> 10 µg/mL
12,B12,> 10 µg/mL

# Target: SARS-CoV-2 Omicron BA.2.75 spike pseudovirus
# Assay: as above
# Procedure: as §1
row,Binder,pseudovirus neutralization IC50
1,B1,> 10 µg/mL
2,B2,> 10 µg/mL
3,B3,> 10 µg/mL
4,B4,> 10 µg/mL
5,B5,> 10 µg/mL
6,B6,> 10 µg/mL
7,B7,> 10 µg/mL
8,B8,> 10 µg/mL
9,B9,0.379 µg/mL
10,B10,5.47 µg/mL
11,B11,> 10 µg/mL
12,B12,> 10 µg/mL

# Target: SARS-CoV-2 Omicron BA.5 spike pseudovirus
# Assay: as above
# Procedure: as §1
row,Binder,pseudovirus neutralization IC50
1,B1,> 10 µg/mL
2,B2,> 10 µg/mL
3,B3,> 10 µg/mL
4,B4,> 10 µg/mL
5,B5,> 10 µg/mL
6,B6,> 10 µg/mL
7,B7,> 10 µg/mL
8,B8,> 10 µg/mL
9,B9,> 10 µg/mL
10,B10,> 10 µg/mL
11,B11,> 10 µg/mL
12,B12,> 10 µg/mL

# Target: SARS-CoV-2 Omicron BQ.1.1 spike pseudovirus
# Assay: as above
# Procedure: as §1
row,Binder,pseudovirus neutralization IC50
1,B1,> 10 µg/mL
2,B2,> 10 µg/mL
3,B3,> 10 µg/mL
4,B4,> 10 µg/mL
5,B5,> 10 µg/mL
6,B6,> 10 µg/mL
7,B7,> 10 µg/mL
8,B8,> 10 µg/mL
9,B9,> 10 µg/mL
10,B10,> 10 µg/mL
11,B11,> 10 µg/mL
12,B12,> 10 µg/mL

# Target: SARS-CoV-2 Omicron XBB spike pseudovirus
# Assay: as above
# Procedure: as §1
row,Binder,pseudovirus neutralization IC50
1,B1,> 10 µg/mL
2,B2,> 10 µg/mL
3,B3,> 10 µg/mL
4,B4,> 10 µg/mL
5,B5,> 10 µg/mL
6,B6,> 10 µg/mL
7,B7,> 10 µg/mL
8,B8,> 10 µg/mL
9,B9,> 10 µg/mL
10,B10,> 10 µg/mL
11,B11,> 10 µg/mL
12,B12,> 10 µg/mL

# Target: SARS-CoV-2 early D614G spike pseudovirus
# Assay: as above
# Procedure: as §1
row,Binder,pseudovirus neutralization IC50
1,B1,0.0733 µg/mL
2,B2,1.32 µg/mL
3,B3,0.00128 µg/mL
4,B4,0.0538 µg/mL
5,B5,0.243 µg/mL
6,B6,> 10 µg/mL
7,B7,0.15 µg/mL
8,B8,> 10 µg/mL
9,B9,0.001 µg/mL
10,B10,0.0132 µg/mL
11,B11,0.363 µg/mL
12,B12,1.97 µg/mL
